# Measured values published in PMC13630248 (PLOS Biology, 2026).
# B1: V1WT_06 IgG (antibody, V domains shown)
# VH: EVQLVQSGAEVKKPGASVKVSCKASGYTFSSHGISWVRQAPGQGLEWMGWISTYNGNTNSAQNLQGRVTMTADTSTSTAYMELRSLRSDDTAVYYCARGPWGYCSGTSCYYWTPDNPAYSYHGMDVWGQGTTVTVSS
# VL: not shown
# notes: copies: 2 + 2
# B2: VA14_26 IgG (antibody, V domains shown)
# VH: QVQLQQWGAGLLKPSDTLSLTCGISGGPFSGYYWSWIRQPPGKGLEWLGEINHSGITTYNPSLKSRGTISVDTSKRQISLKLASVTAADTAVYYCARFAYGDYGWDYSSDMDVWGKGTTVTVSS
# VL: DIQLTQSPSTLSASVGDRVTITCRASQSISTWLAWHQQIPGKAPKLLIYRASTLQSGVPSRFSGSGSGTEFTLTISSLQPDDFATYYCQQYYSVRTFGQGTKVDIK
# notes: copies: 2 + 2
# B3: V1WT_41 IgG (antibody, V domains shown)
# VH: QVQLQESGPGLVKPSETVSVTCTVSGGSITRSNYYWGWIRQPPGKGLEWIGSIFYNGNTNYNPSLKSRLTISVDTSKNQFSLKLSSVTAADTAVYYCARTAPYYYDRSGYYQKEEYFQRWGQGTLVTVSS
# VL: EIVMTQSPSTLSASVGDRVTITCRASQSISTWLAWYQQKPGKAPNLLIYQASSLESGVPSRFSGSGSGTEFTLTISSLQPDDFATYYCQQYNNYPRTFGQGTKLEIK
# notes: copies: 2 + 2
# Legend:
# [1] = target: RP3/2004 Spike, full-length, on the cell surface (bat coronavirus Rp3/2004, UniProt Q3I5J5); conditions: one partner purified
# [2] = target: SARS-CoV-2 RBD (recombinant receptor binding domain of Spike) (SARS-CoV-2, UniProt P0DTC2); conditions: both partners purified
Binder,binding result [1],"fold increase in binding by ELISA, IgG over Fab [2] [fold]"
B1,binds,1.3
B2,binds,–
B3,binds,–
